Measured values from several laboratories, pooled; numbers as filed in NIAID ChemDB.

Shared fields: whole-cell or culture tests; species: HIV-1; method: p24; measure: EC50

Two numbers with a dash give a range or band. Lines come from different laboratories, so protocols vary. Blank or dashed fields: not listed here. ECn is the concentration giving n% inhibition of infection, replication or growth.

smiles	mutations	cell line	strain or isolate	conditions	result
NC(=O)n1c(O)c(C(=O)c2cccs2)c2cc(Cl)ccc21	-	H9	MN	-	<45 µM
C/C=C(/C)C(=O)OC1c2cc3c(c(OC)c2-c2c(cc4c(c2OC)OCO4)C[C@H](C)[C@]1(C)O)OCO3	-	H9	IIIB	-	20 µg/mL
CC(C)CN(C[C@@H](O)[C@H](Cc1ccccc1)NC(=O)O[C@H]1CCOC1)S(=O)(=O)c1ccc(Cl)c(Cl)c1	-	CEM	IIIB	-	<0.101 µM
CCN1c2ncc(CCOc3ccc(/C=C(\C)C(=O)O)c4ccccc34)cc2C(=O)N(C)c2ccc(F)nc21	-	C8166	WT	-	<0.1 µM
O=C(CCCC[C@@H]1SC[C@@H]2NC(=O)N[C@@H]21)NCCOCCOCCOc1cc(C2(C(F)(F)F)N=N2)ccc1C(=O)NCCOCCOCCNC(=O)c1cc(C(=O)c2ccc3ccccc3c2)n2ccc(C(=O)c3ccccc3)cc12	-	H9	-	-	34.6 µM
Nc1nc(=O)n([C@H]2CC[C@@H](CO)O2)cc1F	-	C8166	RF	-	0.166 µM
Cc1c(O)cccc1C(=O)N[C@@H](Cc1ccccc1)C(=O)N(O)[C@@H](Cc1ccccc1)C(=O)N1CCC[C@@H]1C(=O)NC(C)(C)C	-	CEM	IIIB	-	0.63 µM
COc1c(Br)c2c(c(OC)c1OC)-c1c(c(Br)c3c(c1OC)OCO3)C[C@H](C)[C@@](C)(O)C2	-	H9	IIIB	-	>9 µg/mL
CC(C)CN(C[C@@H](O)[C@H](Cc1ccccc1)NC(=O)O[C@H]1CO[C@H]2OCC[C@H]21)S(=O)(=O)c1ccc2c(c1)OCO2	L10F/M461/I50V/A71V/I84V/L90M	MT-4	NL4-3 (APV5)	-	0.032 µM
COc1c2c(cc3c1-c1c(cc4c(c1OC)OCO4)C(OC(=O)c1ccccc1)[C@@](C)(O)[C@@H](C)C3)OCO2	-	H9	IIIB	-	0.5 µg/mL
O=C1N[C@H](COC(=O)N[C@@H](Cc2ccccc2)[C@H](O)CN(CC2CCCC2)S(=O)(=O)c2ccc(Cl)cc2)CO1	-	CEM	IIIB	-	<0.101 µM
CC(C)(C)NC(=O)[C@H]1CCCN1C(=O)[C@H](Cc1ccccc1)N(O)C(=O)[C@H](Cc1ccccc1)NC(=O)OCC1c2ccccc2-c2ccccc21	-	CEM	IIIB	-	0.098 µM
CC1(C)Oc2ccc3cc(C(Br)Br)c(=O)oc3c2[C@@H](OC(=O)C23CCC(C)(C(=O)O2)C3(C)C)[C@H]1OC(=O)C12CCC(C)(C(=O)O1)C2(C)C	-	PBMC	IIIB	-	0.000119 µg/mL
CCN(C(=O)C(=O)N(C)C)C1CN(C)CCn2c1nc(C(=O)NCc1ccc(F)c(C)c1)c(O)c2=O	-	MT-4	-	-	<1 µM
CC(C)(C)NC(=O)[C@H]1CCCN1C(=O)[C@H](Cc1ccccc1)N(O)C(=O)[C@H](Cc1ccccc1)NC(=O)OCc1ccccc1	-	CEM	IIIB	-	0.371 µM
CN(C)CC1c2nc(C(=O)NCc3ccc(F)cc3)c(O)c(=O)n2CCN1C(=O)C(=O)N(C)C	-	MT-4	-	-	<50 µM
c1ccc(CNCCc2ccc(CN3CCNCCCCCCCNCC3)cc2)nc1	-	MT-4	IIIB	-	0.032 µg/mL
NS(=O)(=O)c1ccc(NC(=O)CSc2nnnn2-c2cc(Cl)ccc2Cl)c(Cl)c1	-	MT-4	-	-	<10 µM
CC(=O)N(C)c1nc(C(=O)NCc2ccc(F)cc2)c(O)c2ncccc12	-	MT-4	-	50% human serum	<0.612 µM
O=C(CCSc1nnnn1-c1cccc2ccccc12)Nc1ccccc1[N+](=O)[O-]	-	MT-4	-	-	<10 µM
Nc1ncnc2c1ncn2[C@H]1CC[C@@H](CO)O1	-	H9	MN	-	1.19 µM
C=C(C)[C@@H]1CC[C@]2(C(=O)N[C@H](CC(C)C)C(=O)O)CC[C@]3(C)[C@H](CC[C@@H]4[C@@]5(C)CC[C@H](OC(=O)CC(C)(C)C(=O)O)C(C)(C)[C@@H]5CC[C@]43C)[C@@H]12	-	MT-4	NL4-3	-	0.02 µM
CCCCCCCCCCCCCCCCCCOCCOP(=O)(O)CO[C@H](CO)Cn1cnc2c(N)ncnc21	RT-D67N K70R T215Y K219Q	MT-2	4xAZT	-	0.00001 µM
COc1cc2c(c(OC)c1OC)-c1c(cc3c(c1OC)OCO3)C[C@@H](C)[C@@H](C)C2	-	H9	IIIB	-	0.8 µg/mL
O=C(O)CN1CCn2c(nc(C(=O)NCc3ccc(F)cc3)c(O)c2=O)C1	-	MT-4	-	-	<50 µM
CCN1c2ncc(CCOc3ccc4cc(CC(=O)NN)ccc4c3)cc2C(=O)N(C)c2cccnc21	-	C8166	WT	-	<0.1 µM
CC1(C)c2nc(C(=O)NCc3ccc(F)cc3)c(O)c(=O)n2CCN1Cc1ccccn1	-	MT-4	-	-	<1 µM
CC(C)n1c(=O)c(O)c2n(c1=O)C(CCn1ccnc1)CN(Cc1ccc(F)cc1)C2=O	-	MT-4	-	-	<10 µM
CC(C)=CCOc1cc(NC(=S)c2ccoc2C)ccc1Cl	RT-D67N K70R T215Y K219Q	CEM + CEM-SS	4xAZT(RT-D67N K70R T215Y K219Q)	-	0.006 µM
CC(=O)OCc1cc2ccc3c(c2oc1=O)[C@@H](OC(=O)[C@@]12CC[C@@](C)(C(=O)O1)C2(C)C)[C@@H](OC(=O)[C@@]12CC[C@@](C)(C(=O)O1)C2(C)C)C(C)(C)O3	-	PBMC	IIIB	-	0.00103 µg/mL
COC(=O)c1ccc(NC(=O)CSc2nnnn2-c2c(C)cc(C)cc2C)c(Cl)c1	-	MT-4	-	-	<10 µM
CN(CC1c2nc(C(=O)NCc3ccc(F)cc3)c(O)c(=O)n2CCN1C)C(=O)c1cccc[n+]1[O-]	-	MT-4	-	-	1–10 µM
Cc1cc(S(=O)(=O)Nc2nnc3c4ccccc4cnn23)c(S)cc1Cl	-	CEM	OC/100	-	27.4 µM
COc1ccc(S(=O)(=O)N(CC(C)C)C[C@@H](O)[C@H](Cc2ccccc2)NC(=O)OCc2ccncc2)cc1	-	CEM	IIIB	-	<0.101 µM
FC(F)(F)c1cc(C(F)(F)F)c2ccc3nnc(-c4ccccc4)n3c2n1	-	PBMC	Isolate 2076	-	19 µM
CCOCn1c(Cc2ccccc2)c(C(C)C)c(=O)[nH]c1=O	-	PBMC	CC4	-	0.0022 µM
COc1cc2c(c(OC)c1OC)-c1c(cc(OC)c(OC)c1OC)C[C@](C)(O)[C@@H](C)C2	-	H9	IIIB	-	>9 µg/mL
O=C(N[C@@H](Cc1ccccc1)[C@H](O)CN(CC1CCCC1)S(=O)(=O)c1cccnc1)O[C@H]1CCOC1	-	CEM	IIIB	-	<0.101 µM
CCOC(=O)c1nnsc1Nc1ccccc1Nc1snnc1C(=O)OCC	-	C8166	NL4.3/DS5000R	-	10 µM
CCN1c2ncc(CCOc3ccc(C(=O)O)c4c3CCCC4)cc2C(=O)N(C)c2ccc(F)nc21	RT-K103N Y181C	C8166	-	-	<0.1 µM
COc1cc(CBr)c(-c2c(CBr)cc(OC)c(OC)c2OC)c(OC)c1OC	-	H9	IIIB	-	90 µM
CC(=O)c1ccc(NC(=O)CSc2nnnn2-c2c(C)cc(C)cc2C)cc1	-	MT-4	-	-	<10 µM
CCCCCCCCCCCCCCCCOCCCOP(=O)(O)CO[C@H](CO)Cn1cnc2c(N)ncnc21	RT-M184V	MT-2	-	-	0.03 µM
C=C(C)[C@@H]1CC[C@]2(C(=O)N[C@@H](CC(C)C)C(=O)O)CC[C@]3(C)[C@H](CC[C@@H]4[C@@]5(C)CC[C@H](OC(=O)CC(C)(C)C(=O)O)C(C)(C)[C@@H]5CC[C@]43C)[C@@H]12	-	MT-4	NL4-3	-	0.015 µM
O=C1c2c(O)c(=O)n(N3CCCCCC3)c(=O)n2CCN1Cc1ccc(F)cc1	-	MT-4	-	-	<10 µM
CCOC(=O)c1cc(C(=O)c2ccc3ccccc3c2)n2ccc(C(=O)NCc3ccccn3)cc12	-	H9	-	-	82 µM
CC(C)[C@H](NC(=O)[C@H](CO)NC(=O)[C@H](CS)NC(=O)CCC(=O)NCCCOCCOCCCN)C(=O)N[C@H](C(=O)N[C@@H](CS)C(=O)NCC(=O)O)[C@@H](C)O	-	PBMC(PHA STIM.) + PBMC	BaL	-	1.32 µM
O=C1c2c(O)c(=O)n(C3CCSc4ccccc43)c(=O)n2CCN1Cc1ccc(F)cc1	-	MT-4	-	-	<10 µM
C=C(C)[C@@H]1CC[C@]2(C(=O)O)CC[C@]3(C)[C@H](CC[C@@H]4[C@@]5(C)CC[C@H](OC(=O)C(C)(C)CC(=O)O)C(C)(C)[C@@H]5CC[C@]43C)[C@@H]12	-	MT-4	NL4-3	-	0.45 µM
COc1ccc(S(=O)(=O)N(CC2CCCC2)C[C@@H](O)[C@H](Cc2ccccc2)NC(=O)O[C@@H]2CCOC2)cc1	-	CEM	IIIB	-	<0.1 µM
O=C1c2c(O)c(=O)n(-c3ccc(N4CCOCC4)nc3)c(=O)n2CCN1Cc1ccc(F)cc1	-	MT-4	-	-	<10 µM
CN1CCc2nc(C(=O)NCc3ccc(F)cc3)c(O)c(=O)n2C1=O	-	MT-4	-	-	<50 µM
CC1(C)Oc2ccc3cc(CBr)c(=O)oc3c2[C@@H](OC(=O)C23CCC(C)(C(=O)O2)C3(C)C)[C@H]1OC(=O)C12CCC(C)(C(=O)O1)C2(C)C	-	PBMC	IIIB	-	0.0854 µg/mL
COc1cc(C=O)c(-c2c(C=O)cc(OC)c(OC)c2OC)c(OC)c1OC	-	H9	IIIB	-	5 µM
CCN1c2ncc(CCOc3ccc(C(=O)O)c4c3CCN(S(=O)(=O)N(C)C)C4)cc2C(=O)N(C)c2cccnc21	-	C8166	WT	-	<0.1 µM
CC(C)(C)NC(=O)[C@H]1CCCN1C(=O)CN(O)C(=O)[C@H](Cc1ccccc1)NC(=O)OCC1c2ccccc2-c2ccccc21	-	CEM	IIIB	-	1.25 µM
O=C(O)C(O)c1ccccc1	-	CD4+ T-CELLS + CD4	X4 clinical isolate	-	<1 µg/mL
[N-]=[N+]=NCCOCCOCCOc1cc(C2(C(F)(F)F)N=N2)ccc1C(=O)NCCOCCOCCNC(=O)c1cc(C(=O)c2ccc3ccccc3c2)n2ccc(C(=O)c3ccccc3)cc12	-	H9	-	-	27.4 µM
Cc1c(CBr)c(=O)oc2c3c(ccc12)OC(C)(C)[C@H](OC(=O)C12CCC(C)(C(=O)O1)C2(C)C)[C@@H]3OC(=O)C12CCC(C)(C(=O)O1)C2(C)C	-	PBMC	IIIB	-	0.000192 µg/mL
COc1c2c(c(Br)c3c1-c1c(c(Br)c4c(c1OC)OCO4)C[C@H](C)[C@H](C)C3)OCO2	-	H9	IIIB	-	>100 µg/mL
COc1cc(C2(C(F)(F)F)N=N2)ccc1C(=O)NCCOCCOCCNC(=O)c1cc(C(=O)c2ccc3ccccc3c2)n2ccc(C(=O)c3ccccc3)cc12	-	H9	-	-	14.9 µM
C=C(C)[C@@H]1CC[C@]2(C(=O)N[C@@H](CC(C)C)C(=O)O)CC[C@]3(C)[C@H](CC[C@@H]4[C@@]5(C)CC[C@H](OC(=O)C(C)(C)CC(=O)O)C(C)(C)[C@@H]5CC[C@]43C)[C@@H]12	-	MT-4	NL4-3	-	0.008 µM
Cc1cc(C)c(-n2nnnc2OCC(=O)Nc2ccccc2[N+](=O)[O-])c(C)c1	-	MT-4	-	-	<10 µM
O=P(O)(O)OP(=O)(O)OP(=O)(O)OP(=O)(O)OP(=O)(O)OP(=O)(O)OP(=O)(O)OP(=O)(O)OP(=O)(O)OP(=O)(O)OP(=O)(O)OP(=O)(O)OP(=O)(O)OP(=O)(O)OP(=O)(O)O	-	H9	IIIB	-	>100 µg/mL
CC(C)CN(C[C@@H](O)[C@H](Cc1ccccc1)NC(=O)OCc1ccccc1)S(=O)(=O)c1ccc2nonc2c1	-	CEM	IIIB	-	<1.001 µM
C=CC(C)(/C=C\c1ccc(O)cc1)c1ccc(O)cc1.NC(=O)NO	-	Macrophage	6366	-	<0.00054 µM
CCN1c2ncc(CCOc3ccc(C4CC4C(=O)O)c4ccccc34)cc2C(=O)N(C)c2ccc(F)nc21	-	C8166	WT	-	<0.1 µM
CCCCN(CCCC)CCCn1c(=O)c(O)c2n(c1=O)CCN(Cc1ccc(F)cc1)C2=O	-	MT-4	-	-	<10 µM
Cc1noc(C)c1S(=O)(=O)N(Cc1ccccc1)C[C@@H](O)[C@H](Cc1ccccc1)NC(=O)[C@H](CC(N)=O)NC(=O)c1ccc2ccccc2n1	-	CEM	IIIB	-	<1.001 µM
C=C(C)[C@@H]1CC[C@]2(C(=O)NCCCCCCCCCCC(=O)O)CC[C@]3(C)[C@H](CC[C@@H]4[C@@]5(C)CC[C@H](OC(=O)CC(C)(C)C(=O)O)C(C)(C)[C@@H]5CC[C@]43C)[C@@H]12	-	MT-4	NL4-3	-	0.012 µM
CC(=O)Nc1cccc(S(=O)(=O)N(CC(C)C)C[C@@H](O)[C@H](Cc2ccccc2)NC(=O)OC2CCOC2)c1	-	CEM	IIIB	-	<0.101 µM
CC(C)[C@H](NC(=O)[C@H](CO)NC(=O)[C@@H](N)CSSCC(=O)O)C(=O)N[C@H](C(=O)N[C@@H](CSSCC(=O)O)C(=O)NCC(=O)O)[C@@H](C)O	-	PBMC(PHA STIM.) + PBMC	IIIB	-	<0.132 µM

The first 5 rows once more:

smiles,mutations,cell line,strain or isolate,conditions,result
NC(=O)n1c(O)c(C(=O)c2cccs2)c2cc(Cl)ccc21,-,H9,MN,-,<45 µM
C/C=C(/C)C(=O)OC1c2cc3c(c(OC)c2-c2c(cc4c(c2OC)OCO4)C[C@H](C)[C@]1(C)O)OCO3,-,H9,IIIB,-,20 µg/mL
CC(C)CN(C[C@@H](O)[C@H](Cc1ccccc1)NC(=O)O[C@H]1CCOC1)S(=O)(=O)c1ccc(Cl)c(Cl)c1,-,CEM,IIIB,-,<0.101 µM
CCN1c2ncc(CCOc3ccc(/C=C(\C)C(=O)O)c4ccccc34)cc2C(=O)N(C)c2ccc(F)nc21,-,C8166,WT,-,<0.1 µM
O=C(CCCC[C@@H]1SC[C@@H]2NC(=O)N[C@@H]21)NCCOCCOCCOc1cc(C2(C(F)(F)F)N=N2)ccc1C(=O)NCCOCCOCCNC(=O)c1cc(C(=O)c2ccc3ccccc3c2)n2ccc(C(=O)c3ccccc3)cc12,-,H9,-,-,34.6 µM